Consider one molecule from the CheMixHub viscosity set.

Each structure is given as a SMILES string. ± gives the uncertainty stated by the source.

A short description of this data set: xn = mol fraction of the nth substance listed. Conditions: 101 kPa, x1 = 0.8082.

With `CCCCOCCCC` + CCCCCCCCC, the viscosity is reported as 0.6432 ± 0.0082 mPa·s (298.15 K), 0.5847 ± 0.0075 mPa·s (308.15 K) and 0.5159 ± 0.0066 mPa·s (318.15 K).
